Measured values from several laboratories, pooled; numbers as filed in NIAID ChemDB.

Shared fields: growth or infection tests; agent: Rhinovirus

MIC50, MIC90 and the like: level of inhibition, or share of isolates inhibited.

SMILES	strain	cell line	read by	read-out	dose	result
CN(C)c1nc(C(F)(F)F)nc2c1ncn2Cc1ccc(S(C)(=O)=O)cc1	Serotype 8	M-HELA	plaque count	inhibition	8 µM	36%
CN(c1cccc(F)c1)c1nc(C(F)(F)F)nc2c1ncn2Cc1cccc(F)c1	Serotype 5	M-HELA	plaque count	EC50	-	>10 µM
O=S(=O)([O-])c1cccc(O)c1	-	Human embryonic lung cells	cytopathic effect	inhibition	10 µg/mL	0%
CCOC(=O)c1ccc(OCCC2CCN(c3ccc(C)nn3)CC2)cc1	5426-CV26 (ICAM-1 receptor group 25)	KB	neutral red	EC50	-	0.108 µM
O=S(=O)([O-])c1ccc2c(S(=O)(=O)[O-])cc(S(=O)(=O)[O-])cc2c1	-	Human amnion AV3 cells	cytopathic effect	inhibition	5 µg/mL	5%
Fc1cccc(Cn2cnc3c(Nc4cccc(F)c4)nc(C(F)(F)F)nc32)c1	Serotype 30	M-HELA	plaque count	EC50	-	>5 µM
O=C(O)c1cc(S(=O)(=O)[O-])ccc1O	-	Human embryonic lung cells	cytopathic effect	inhibition	5 µg/mL	0%
Cc1cc(CCCCCOc2cc(Cl)c(-c3nnco3)c(Cl)c2)on1	Serotype 21	-	-	MIC80	-	0.24 µg/mL
CN(C)c1nc(C(F)(F)F)nc2c1ncn2Cc1ccccc1Cl	Serotype 30	M-HELA	plaque count	inhibition	8 µM	31%
Cc1cc(CCCOc2c(C)cc(-c3noc(C(F)(F)F)n3)cc2C)on1	Isolate 14	OHIO HELA-I	cytopathic effect / visual reading	EC50	-	0.11 µg/mL
Cc1ccccc1Cn1cnc2c(N(C)C)nc(C(F)(F)F)nc21	Serotype 21	M-HELA	plaque count	inhibition	8 µM	18%
Cc1cc(CCCCCOc2ccc(-c3ncon3)cc2)on1	serotype 2 1A 1B 6 14 21 22 15 25 30 50 67 89 86 41	-	-	MIC80	-	2.56 µg/mL
Nc1c(S(=O)(=O)[O-])cc2cc(S(=O)(=O)[O-])ccc2c1O	-	Human amnion AV3 cells	cytopathic effect	inhibition	5 µg/mL	0%
CN(C)c1nc(C(F)(F)F)nc2c1ncn2Cc1ccc(Cl)cc1Cl	Serotype 29	M-HELA	plaque count	inhibition	8 µM	15%
O=C(Nc1ccc2c(O)c(N=Nc3ccc(N=Nc4ccc(S(=O)(=O)O)cc4)cc3)c(S(=O)(=O)O)cc2c1)c1ccccc1	-	Human amnion AV3 cells	cytopathic effect	inhibition	10 µg/mL	0%
CC(C)Oc1ccc(Cn2cnc3c(N(C)C)nc(C(F)(F)F)nc32)cc1	Serotype 21	M-HELA	plaque count	inhibition	8 µM	40%
Cc1cc(CCCCCOc2cc(Cl)c(-c3nnc(C)o3)c(Cl)c2)on1	Serotype 2	-	-	MIC80	-	0.016 µg/mL
O=S(=O)([O-])c1ccc(NS(=O)(=O)c2ccccc2)c2c(S(=O)(=O)[O-])cccc12	-	Human embryonic lung cells	cytopathic effect	inhibition	10 µg/mL	60%

A second listing of 2 rows from above:

{"SMILES": "CN(c1cccc(F)c1)c1nc(C(F)(F)F)nc2c1ncn2Cc1cccc(F)c1", "strain": "Serotype 5", "cell line": "M-HELA", "read by": "plaque count", "read-out": "EC50", "result": ">10 µM"}
{"SMILES": "CN(C)c1nc(C(F)(F)F)nc2c1ncn2Cc1ccccc1Cl", "strain": "Serotype 30", "cell line": "M-HELA", "read by": "plaque count", "read-out": "inhibition", "dose": "8 µM", "result": "31%"}

ECn is the concentration giving n% inhibition of infection, replication or growth. Blank or dashed fields: not listed here. Percent inhibition refers to the dose given; in toxicity tests it is the harm to the cells. Conditions beyond the fields shown may differ between rows.